Measured values from several laboratories, pooled; numbers as filed in NIAID ChemDB.

Common to all: growth or infection tests; agent: Candida albicans; measure: MIC

Blank or dashed fields: not listed here. Neighbouring rows are from separate reports.

| smiles | strain | value |
|---|---|---|
| CC(C)(C)c1ccc(COC(Cn2ccnc2)c2ccccc2)cc1 | 5M | 128 µg/mL |
| Fc1ccc(CCCCn2c3c(c4cc(F)ccc42)CNCC3)cc1 | OY2-79 | 1 µg/mL |
| COc1c(O)c2c(=O)cc(OC)c3c4c(OC)cc(=O)c5c(O)c(OC)c6c(c(c1CC(C)=C6OC(C)=O)c23)c54 |  | 22 µg/mL |
| CCCCCOc1ccc(-c2ccc(-c3ccc(C(=O)N[C@H]4CCCNC(=O)[C@@H]5C[C@H](N)CN5C(=O)CNC(=O)C(CCc5ccc(O)cc5)NC(=O)[C@@H]5C[C@@H](O)CN5C(=O)[C@H]([C@@H](C)O)NC4=O)cc3)cc2)cc1 | ATCC CCH442 | 0.39 µg/mL |
| Clc1ccc(C(Cn2ccnc2)OC/C=C/c2ccccc2)cc1 | Y0109 | >128 µg/mL |
| CCCCCOc1ccc(-c2ccc(-c3ccc(CN[C@H]4CCCNC(=O)C5C[C@H](N)CN5C(=O)C(C(C)O)NC(=O)C(CCc5ccc(O)cc5)NC(=O)C5C[C@@H](O)CN5C(=O)C(C(C)O)NC4=O)cc3)cc2)cc1 | ATCC CCH442 | 0.2 µg/mL |
| C[C@H]1[C@H](O)[C@@H](C)/C=C/C=C/C=C/C=C/C=C/C=C/C=C/[C@H](O[C@@H]2O[C@H](C)[C@@H](O)[C@H](N)[C@@H]2O)C[C@@H]2O[C@](O)(C[C@@H](O)C[C@@H](O)CC[C@H](O)[C@@H](O)C[C@@H](O)CC(=O)O[C@H]1C)C[C@H](O)[C@H]2C(=O)O | 2402E | 0.004 µg/mL |
| CCCCCOc1ccc(-c2ccc(-c3ccc(C(=O)N[C@H]4CCCNC(=O)[C@@H]5C[C@H](N)CN5C(=O)[C@H](CC)NC(=O)C(CCc5ccc(O)cc5)NC(=O)[C@@H]5C[C@@H](O)CN5C(=O)[C@H]([C@@H](C)O)NC4=O)cc3)cc2)cc1 | ATCC 10231 | 0.1 µg/mL |
| Cc1ccc(O)c(C(=O)/C=C/c2ccc(O)cc2O)c1 | SDAU5 | 75 µg/mL |
| CCCCCOc1ccc(-c2ccc(-c3ccc(C(=O)N[C@H]4CCCNC(=O)C5C[C@H](N)CN5C(=O)C(CCCN(CCN)CCN)NC(=O)C(CCc5ccc(O)cc5)NC(=O)C5C[C@@H](O)CN5C(=O)C(C(C)O)NC4=O)cc3)cc2)cc1 | ATCC 10231 | 0.78 µg/mL |
| Cc1ccc(C(Cn2ccnc2)OC/C=C/c2ccccc2)cc1 | CA6 | 128 µg/mL |
| CCCCCOc1ccc(-c2ccc(-c3ccc(C(=O)N[C@H]4CCCNC(=O)C5C[C@H](N)CN5C(=O)C(C)NC(=O)C(CCc5ccc(O)cc5)NC(=O)C5C[C@@H](O)CN5C(=O)C(C(C)O)NC4=O)cc3)cc2)cc1 | ATCC 62376 | 0.39 µg/mL |
| C[C@@H](n1cnc2cc(Sc3ccccc3)ccc2c1=O)[C@](O)(Cn1cncn1)c1ccc(F)cc1F | 60 strains | ≤0.03 µg/mL |
| CCCCCCCCN1CCN(c2ccc(C(=O)N[C@H]3CCCNC(=O)C4C[C@H](N)CN4C(=O)C(C(C)O)NC(=O)C(CCc4ccc(O)cc4)NC(=O)C4C[C@@H](O)CN4C(=O)C(C(C)O)NC3=O)cc2)CC1 | ATCC 10231 | 1.56 µg/mL |
| O=C(/C=C/c1ccc(O)cc1O)c1ccccc1 | SDAU5 | 75 µg/mL |
| CC(=O)N1CCN(c2ccc(OC[C@H]3CO[C@](Cn4ccnc4)(c4ccc(Cl)cc4Cl)O3)cc2)CC1 | 1208E | 0.001 µg/mL |
| CCC(C)n1ncn(-c2ccc(N3CCN(c4ccc(OC[C@H]5CO[C@](Cn6cncn6)(c6ccc(Cl)cc6Cl)O5)cc4)CC3)cc2)c1=O | Isolate CA-1 | >8 µg/mL |
| Clc1ccc(C(Cn2ccnc2)OCc2ccc(-c3ccccc3)cc2)c(Cl)c1 | 3M | 128 µg/mL |
| C[C@H](n1cnc2cc(Cl)ccc2c1=O)[C@@](O)(Cn1cncn1)c1ccc(F)cc1F | 76 strains | 80 µg/mL |
| CCCCCOc1ccc(-c2ccc(-c3ccc(C(=O)N[C@H]4CCCNC(=O)C5C[C@H](N)CN5C(=O)C(CCCCN)NC(=O)C(CCc5ccc(O)cc5)NC(=O)C5C[C@@H](O)CN5C(=O)C(C(C)O)NC4=O)cc3)cc2)cc1 | ATCC CCH442 | 0.2 µg/mL |
| Cc1cc(C)c2ncn([C@H](C)[C@](O)(Cn3cncn3)c3ccc(F)cc3F)c(=O)c2c1 | 406 strains | ≤0.15 µg/mL |
| CC[C@@H]([C@H](C)O)n1ncn(-c2ccc(N3CCN(c4ccc(OC[C@@H]5CO[C@@](Cn6cncn6)(c6ccc(F)cc6F)C5)cc4)CC3)cc2)c1=O | Isolate CA-3 | >4 µg/mL |
| C[C@@H](n1cnc2cc(Oc3ccc(Cl)cc3)ccc2c1=O)[C@](O)(Cn1cncn1)c1ccc(F)cc1F | 406 strains | ≤0.03 µg/mL |
| CCCCCOc1ccc(-c2ccc(-c3ccc(C(=O)N[C@H]4CCCNC(=O)C5[C@H](N)CN5C(=O)C(C(C)O)NC(=O)C(CCc5ccc(O)cc5)NC(=O)C5C[C@@H](O)CN5C(=O)C(C(C)O)NC4=O)cc3)cc2)cc1 | ATCC 62376 | 0.2 µg/mL |
| CCC(C)n1ncn(-c2ccc(N3CCN(c4ccc(OC[C@H]5CO[C@](Cn6cncn6)(c6ccc(Cl)cc6Cl)O5)cc4)CC3)cc2)c1=O | 60 strains | 0.07 µg/mL |
| C(=C\c1ccccc1)/COC(Cn1ccnc1)c1ccccc1 | CA12 | 128 µg/mL |